Library screen at single concentrations

From ChEMBL document CHEMBL3988442, “University of Dundee, Small-Polar-MMV Screening Library” (2021).

Values are the deposited “Percent Effect”, in %. How 0% and 100% were set is not recorded. Most values in the screen are low, and negative values occur. Many other results are left out here, so strong results are more common than in the screen.

A: 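Phenotypic screen: M. tuberculosis growth, cholesterol and DPPC medium, 4 days; the read-out is not stated. Concentration: 500 µM. Higher reads as more growth inhibition (inferred: compounds with an IC50 in retests scored well above the rest). Size under these conditions: about 18,000 compounds, about 900 of them at 50% or above in at least one test.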
B: 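Growth of Mycobacterium tuberculosis over 3 days (7H9 medium with glucose and tyloxapol); the read-out is not stated. Concentration: 500 µM. Higher reads as more growth inhibition (inferred: compounds with an IC50 in retests scored well above the rest). Of about 18,000 compounds tested this way, about 1,400 (7.9%) reached 50% or more in at least one test.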

For COc1cc(CN)cc(Cl)c1OC the result was B: 7.281%.
For CN(C)c1nc(CS(=O)(=O)c2cccc(F)c2)ns1 the result was B: 4.645%.
For CCN(Cc1ccoc1)C(=O)[C@@H](N)CC(C)C the result was B: 34.94%.
For CN(C)c1ccc(CCNC(=O)[C@H]2CCCN2)cc1 the result was B: 17.08%.
For CCC(C)[C@H](NC(=O)N1CCCC1)C(N)=O (stereo not given in full) the result was A: -11.81%.
For CC(NC(=O)CCc1ccc(O)cc1)c1cnn(C)c1 (stereo not given) the result was A: 0.1406%.
For Cc1nnc(SCCCNC(=O)CC2COCCN2)s1 (stereo not given) the result was B: -10.53%.
For CCCn1nc(C(=O)NCc2ccccn2)ccc1=O the result was A: -5.617%; B: 0.9131%.
For CN1CCCC2(CCNC2)C1=O (stereo not given) the result was B: 1.838%.
For c1cnc2ncnc(NC3CCOC3)c2c1 (stereo not given) the result was B: -0.5078%.
For CCc1noc(CNC)n1 the result was B: -3.25%.
For NCC1CCN(Cc2cccc(F)c2)CC1 the result was A: 14.16%.
For Cc1ncc(S(C)(=O)=O)c(NCc2snnc2C)n1 the result was B: 10.5%.
For Cc1cccc(N2CCN(CCCN)CC2)c1 the result was A: 98.98%; B: 49.95%.
For CS(=O)(=O)c1nccn1CCOc1ccccc1 the result was B: 30.5%.
For NCC(CO)Cc1ccsc1 (stereo not given) the result was B: 70.71%.
For CC(C)(C)OC(=O)N1CC(S(N)(=O)=O)C1 the result was A: -8.323%.
For COCCC1(CN2CCC(C(N)=O)C2)CCC1 (stereo not given) the result was B: -8.381%.
For CNc1nnc(-c2ccccc2)s1 the result was A: 32.27%; B: 60.59%.
For Cc1nc(C(=O)N2CCSCC2)c(C)s1 the result was B: 10%.
For N#Cc1ccc(NCc2ccccc2F)nc1 the result was A: 47.7%.
For COc1cccc(-c2cnn(CCC(N)=O)c2)c1F the result was A: 64.19%; B: 46.59%.
For CN(C)c1noc(CNS(=O)(=O)c2ccccc2)n1 the result was B: 35.33%.
For CCNC(=O)c1cc(C#N)cn1C the result was A: -0.5858%.
For CN(C)c1cc(CNC(=O)C2CCCO2)ccn1 (stereo not given) the result was B: 7.874%.
For CCN1CCN(C(=O)N(CC)CC)CC1 the result was A: 1.316%.
For CS(=O)(=O)NCc1cnn(-c2ccccc2)c1 the result was B: 14.56%.
For CCOC(=O)CC1CCN(C(=O)C2CCNCC2)CC1 the result was B: -5.677%.
For CNC(=O)NC(=O)CSc1nc(C)c(C)c(C)c1C#N the result was B: -1.377%.
For CC(=O)NC1CCCNC1 (stereo not given) the result was A: 16.13%.
For COCCN1CCC(CNC(=O)N2CCC(C)CC2)C1 (stereo not given) the result was A: 64.62%; B: 57.15%.
For CC(C(N)=O)N1CCNCC1 (stereo not given) the result was B: -6.649%.
For N#CCC1(O)CN(S(=O)(=O)C=Cc2ccc(Cl)cc2)C1 the result was A: 49.09%; B: 61.19%.
For CC(C)C(=O)NC1CCOc2ccccc21 (stereo not given) the result was B: 44.4%.
For CN1C(=O)C(N)CCc2ccccc21 (stereo not given) the result was A: 9.618%.
For CCn1cnnc1CCNC(=O)c1occc1C the result was B: 16.75%.
For CN(C)Cc1cccc(CNc2ncccc2C#N)c1 the result was A: 32.86%.
For CCOC(C(=O)N(C)CC(N)=O)c1ccccc1 (stereo not given) the result was A: 8.826%; B: 53.51%.
For N#Cc1ccc(CN2CCn3ccnc3C2)cc1 the result was B: 14.07%.
For Cc1cc(C(=O)N(C)C[C@H](O)CO)cc(Cl)c1Br the result was A: 53.47%; B: 61.5%.
For CC(=O)NCc1ccc(C(=O)CSc2ccccn2)s1 the result was B: 51.43%.
For Cc1ccncc1NS(=O)(=O)Cc1ccccc1 the result was B: -1.966%.
For NCCn1cc(Br)ccc1=O the result was B: 6.916%.
For CCc1nnc(N2CCN(S(C)(=O)=O)CC2)o1 the result was A: 19.09%.
For CC(=O)Nc1cnn(CC2CCCO2)c1 (stereo not given) the result was A: -15.69%.

For reference, 4 entries once more:

With CC(C)(C)OC(=O)N1CC(S(N)(=O)=O)C1 the screen gave A: -8.323%.
With N#CCC1(O)CN(S(=O)(=O)C=Cc2ccc(Cl)cc2)C1 the screen gave A: 49.09%; B: 61.19%.
With CS(=O)(=O)c1nccn1CCOc1ccccc1 the screen gave B: 30.5%.
With c1cnc2ncnc(NC3CCOC3)c2c1 (stereo not given) the screen gave B: -0.5078%.